This note sets out measurements from ChEMBL document CHEMBL1138690, “Carbonic anhydrase inhibitors. Inhibition of the newly isolated murine isozyme XIII with anions” (Bioorg Med Chem Lett, 2004).

Chains of the proteins cited; added tags and fusions are not shown. Residues count along the entry.
UniProt Q9Y2D0, 34-317 limits assumed: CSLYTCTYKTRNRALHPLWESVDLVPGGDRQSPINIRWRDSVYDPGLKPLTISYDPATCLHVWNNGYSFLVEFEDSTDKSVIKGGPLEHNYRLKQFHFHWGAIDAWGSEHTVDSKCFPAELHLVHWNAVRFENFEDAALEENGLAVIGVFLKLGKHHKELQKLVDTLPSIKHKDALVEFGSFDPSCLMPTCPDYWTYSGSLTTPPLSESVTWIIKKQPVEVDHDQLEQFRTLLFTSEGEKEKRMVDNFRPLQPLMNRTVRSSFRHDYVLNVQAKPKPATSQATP
UniProt P35218, 39-305 limits assumed: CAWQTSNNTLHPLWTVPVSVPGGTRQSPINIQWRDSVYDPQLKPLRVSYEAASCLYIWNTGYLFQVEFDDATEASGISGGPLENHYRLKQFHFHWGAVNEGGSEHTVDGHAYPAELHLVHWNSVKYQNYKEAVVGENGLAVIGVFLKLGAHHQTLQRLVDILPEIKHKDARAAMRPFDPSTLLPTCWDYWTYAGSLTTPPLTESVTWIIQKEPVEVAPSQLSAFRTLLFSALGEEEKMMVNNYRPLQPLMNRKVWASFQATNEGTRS

Each structure is given as a SMILES string. pKi: −log10 of the molar value.

The target of the test is Carbonic anhydrase V (Homo sapiens, UniProt Q9Y2D0+P35218).

As a reminder, the pKi is the negative decadic logarithm of the Ki, by convention in mol/L. Consider `O[As](O)Oc1ccccc1`, for which the pKi was 8.13.
